For this experiment, the target named is Mth GuaB2 ΔCBS (Mycolicibacterium thermoresistibile, UniProt G7CNL4, R236G). Briefly: biochemical.

pKi: −log10 of the molar value.

Turning to `O=C(C1CCCCC1)N1CCN(S(=O)(=O)c2cccc3cnccc23)CC1` [VCC234718, N-(5-Isoquinolinylsulfonyl)-N’-cyclohexanoyl-piperazine], the pKi (in general, the Ki on a negative log10 scale, so that one unit is a factor of ten) was 6.89.

For the origin of these results see paper PMC5241705 (ACS Infectious Diseases, 2016).
